Target: his6-tagged recombinant CFP-SNAP-25-YFP chimera protein (CFP-SNAP-25 (141-206)-YFP), purified from E. coli (UniProt P60881)

botulinum neurotoxin A (BoNT/A) holotoxin
detection sensitivity, 16 hours against 4 hours incubation: incubation for 16 hours slightly increased the detection sensitivity
rate of FRET ratio decrease at various toxin concentrations, 300 nM sensor: higher toxin concentration resulted in faster decrease of the FRET ratio

Source: patent publication US20160177369
